The text below walks through data of PMC9563714.

This data set deals with T1, Vfr (Pseudomonas aeruginosa UCBPP-PA14) (UniProt P55222).
T1 sequence (looked up, limits assumed): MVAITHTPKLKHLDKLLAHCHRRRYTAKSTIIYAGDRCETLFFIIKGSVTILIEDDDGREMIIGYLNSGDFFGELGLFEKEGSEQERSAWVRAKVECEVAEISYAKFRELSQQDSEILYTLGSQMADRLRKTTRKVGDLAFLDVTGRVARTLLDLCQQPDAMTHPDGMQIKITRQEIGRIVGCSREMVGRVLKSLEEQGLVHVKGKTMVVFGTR
Briefly: EMSA. The settings on record: + cAMP (10 uM in legend, 20 uM in Methods); recombinant protein; protein details: C-terminal His (pET-28b); label: biotin 3' end.

Construct, isoform or probe ends are uncertain for at least one entry. Where a protein sequence is shown, tags need not be part of it.

Take “AACAGCCGCCGGGTTCGCTGCCGTCTAGGCAGAACCACCCTCCCCATCCCACTACCAAACATCCGAATATAAAGTTCCTACCCCGCCCGCCAGCCTCGCCCGTCCACGACAATGTGCCTCGCTTGGAAGCTCACGCTCCTCACACAGACGAAAACGGGGTAGCGGCAATCGGCCATATCCGCTAAACAGTTGCCTTGGCGCAGAATTCGATAGATCCGATAGGGACAGGCCACGGTCAAC (double strand) [Pcas1]”: the binding result was “binds”.
